Interaction data for three molecules are collected here from US9452154B2, “Methods for treating HCV” (Gilead Sciences, Inc., priority 2010, dated 2016).

The test has as its system HCV genotype 1a replicon. Description: Biological Example 3: antiviral combination studies with Compound 4 (MacSynergy II). To be noted: in combination with Compound 4.
In the case of `Fc1ccccc1-c1nc2ccn(Cc3ccc(-c4ccc(C(F)(F)F)cc4C(F)(F)F)nn3)cc-2n1` [Compound 1, 5-((6-(2,4-bis(trifluoromethyl)phenyl)pyridazin-3-yl)methyl)-2-(2-fluorophenyl)-5H-imidazo[4,5-c]pyridine], the Interaction entry is “Minor synergy (Minor synergy: >25 and ≦50 nM^2%)”.

On to `CC1=CC[C@H](C(=O)N(c2cc(C#CC(C)(C)C)sc2C(=O)O)[C@H]2CC[C@](O)(CO[C@H]3CCOC3)CC2)CC1` [Compound 5, 5-(3,3-dimethylbut-1-yn-1-yl)-3-[(cis-4-hydroxy-4-{[(3S)-tetrahydrofuran-3-yloxy]methyl}cyclohexyl){[(1R)-4-methylcyclohex-3-en-1-yl]carbonyl}amino]thiophene-2-carboxylic acid], for which the Interaction entry is “Minor synergy (Minor synergy: >25 and ≦50 nM^2%)”.

In the case of `CC[C@@H]1C[C@]1(NC(=O)[C@@H]1C[C@@H](Oc2cc(-c3csc(NC(C)C)n3)nc3c(Cl)c(OCCN4CCOCC4)ccc23)CC1C(=O)[C@@H](NC(=O)O[C@@H]1C[C@@H]2C[C@@H]2C1)C(C)(C)C)C(=O)O` (stereo partly drawn) [Compound 3], the Interaction result is “Minor synergy (Minor synergy: >25 and ≦50 nM^2%)”.
